Consider 1 molecule from patent US11672797B2, “Methods of treating keloids” (Hampton University, priority 2019, dated 2023).

The test system of the test is Keloid fibroblast (KF) cells (CRL1762). The experiment in a line: Example 1: Hoechst / propidium iodide staining of keloid fibroblasts after 16 h treatment. The following applies: 40 μM KC7F2, 25 uM IDF-11774, 25 uM PX-478, 10 mM 2-DG, compared to control untreated cells, FIGS. 4A-B. The format is cell-based, human.

Take `Cl.Cl.N[C@@H](Cc1ccc([N+]([O-])(CCCl)CCCl)cc1)C(=O)O`: the “number of KF cells” value is “did not work well”.
